This passage reports SI results from US9988341B2, “Bacterial topoisomerase inhibitors and use thereof” (THE FLORIDA INTERNATIONAL UNIVERSITY BOARD OF TRUSTEES, priority 2016, dated 2018).

For the data set, the system named is Mtb CDC1551 Mtb::lux. Type of data set: cell-based, M. tuberculosis. The settings on record: ratio CC50 / IC50.
For the compound `CCCC[C@@H](CN[C@H](CN)CCCCNC)NCc1cccc2ccccc12` [Compound 2471-12, (S)—N6-methyl-N2-((S)-2-(naphthalen-1-ylmethylamino)hexyl)hexane-1,2,6-triamine], the SI is 15.4. With `CCCC[C@@H](CN[C@H](CN)CCN)NCc1cccc2ccccc12` [Compound 2471-24, (S)—N2-((S)-2-(naphthalen-1-ylmethylamino)hexyl)butane-1,2,4-triamine], the SI came to 12.

Regarding `CCCC[C@@H](CN[C@@H](CN)CCCCNC)NCc1cccc2ccccc12` [Compound 2471-36], the SI is 11.2.
